Literature values as cited in patent US20020194634A1, “Insect control system” (priority 1999, published 2002).

Conditions: boll weevil; cited from earlier work

COP(=O)(NC(C)=O)SC (stereo not shown) [Acephate, O, S-dimethyl acetylphosphoramidothicate]
metabolism of acephate to methamidophos: No metabolism
